The values that follow come from paper PMC8777605 (Pharmaceuticals, 2021).

The subject of the data set is SARS-CoV-2 gamma strain (P1, B.1.1.28).

Molecules are shown by their SMILES.

As for `COC(=O)N[C@H](C(=O)N[C@@H](Cc1ccccc1)[C@@H](O)CN(Cc1ccc(-c2ccccn2)cc1)NC(=O)[C@@H](NC(=O)OC)C(C)(C)C)C(C)(C)C` [ATV, atazanavir], the “SI (CC50/EC50)” value is recorded as 782.
